{"source": "PubChem BioAssay AID504761 (Drosophila RNAi Screening Center, 2011)", "screen": "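Insect host genes that dengue virus relies on to spread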 (primary screen)", "cells": "D.Mel-2 cells from Drosophila", "knock-down reagent": "long dsRNA against Drosophila genes", "treatment": "infection with dengue virus type 2; dose and infection time not stated", "read-out": "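Cells stained for dengue envelope protein and imaged; percent of infected cells per well on duplicate plates, ranked by infection, with stained nuclei counted for cell number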", "direction": "infection score: higher = more virus-infected cells; cell count: higher = more cells in the well", "hit rule": "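Low infection ranks in the two replicates (chance level up to 0.065) followed by a retest with a 1.5-fold or larger significant decrease, p below 0.05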", "calls": "active = confirmed: knock-down lowers infection; inactive = not picked or not confirmed", "note": "The screen tested about 22,000 reagents; this is an unselected part of those that have a named target and a result. Over the whole deposit, 116 (0.52%) got an active call. 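Calls depend on retest data that are not deposited; infection was ranked per plate without normalising between plates; the unit of the infection score is not given.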 Raw values are not corrected between plates. Not all columns of the deposit are shown. No sequences are given here. Not given: the amount of reagent, the time to read-out."}
{"gene knocked down":"Cirl (Calcium-independent receptor for alpha-latrotoxin)","DRSC id":"DRSC23235","infection score, replicate 1":6.12,"cell count, replicate 1":6734,"outcome":"inactive"}
{"gene knocked down":"Cirl (Calcium-independent receptor for alpha-latrotoxin)","DRSC id":"DRSC28280","infection score, replicate 1":12.8,"cell count, replicate 1":5919,"outcome":"inactive"}
{"gene knocked down":"CG3065","DRSC id":"DRSC24998","infection score, replicate 1":9.92,"cell count, replicate 1":5779,"outcome":"inactive"}
{"gene knocked down":"CG15143","DRSC id":"DRSC02444","infection score, replicate 1":1.26,"cell count, replicate 1":6443,"outcome":"inactive"}
{"gene knocked down":"Inx6 (Innexin 6)","DRSC id":"DRSC20579","infection score, replicate 1":5.37,"cell count, replicate 1":4769,"outcome":"inactive"}
{"gene knocked down":"Inx6 (Innexin 6)","DRSC id":"DRSC26299","infection score, replicate 1":10.3,"cell count, replicate 1":6220,"outcome":"inactive"}
{"gene knocked down":"Sobp (Sine oculis-binding protein)","DRSC id":"DRSC07312","infection score, replicate 1":10.4,"cell count, replicate 1":1704,"outcome":"inactive"}
{"gene knocked down":"Sobp (Sine oculis-binding protein)","DRSC id":"DRSC24534","infection score, replicate 1":4.57,"cell count, replicate 1":6435,"outcome":"inactive"}
{"gene knocked down":"CG42699","DRSC id":"DRSC18076","infection score, replicate 1":3.36,"cell count, replicate 1":5831,"outcome":"inactive"}
{"gene knocked down":"CG42699","DRSC id":"DRSC18341","infection score, replicate 1":4.44,"cell count, replicate 1":6257,"outcome":"inactive"}
{"gene knocked down":"CG42699","DRSC id":"DRSC25221","infection score, replicate 1":10.1,"cell count, replicate 1":6927,"outcome":"inactive"}
{"gene knocked down":"Sol1","DRSC id":"DRSC15263","infection score, replicate 1":29.3,"cell count, replicate 1":5398,"outcome":"inactive"}
{"gene knocked down":"Sol1","DRSC id":"DRSC15271","infection score, replicate 1":9.42,"cell count, replicate 1":6840,"outcome":"inactive"}
{"gene knocked down":"Sol1","DRSC id":"DRSC15681","infection score, replicate 1":9.63,"cell count, replicate 1":6674,"outcome":"inactive"}
{"gene knocked down":"Cyp40 (Cyclophilin 40)","DRSC id":"DRSC10980","infection score, replicate 1":10.2,"cell count, replicate 1":6486,"outcome":"inactive"}
{"gene knocked down":"Cyp40 (Cyclophilin 40)","DRSC id":"DRSC29553","infection score, replicate 1":17.9,"cell count, replicate 1":5250,"outcome":"inactive"}
{"gene knocked down":"CG30384","DRSC id":"DRSC06032","infection score, replicate 1":4.39,"cell count, replicate 1":6099,"outcome":"inactive"}
{"gene knocked down":"CG15530","DRSC id":"DRSC15067","infection score, replicate 1":3.52,"cell count, replicate 1":1051,"outcome":"inactive"}
{"gene knocked down":"CG15530","DRSC id":"DRSC29873","cell count, replicate 1":274,"outcome":"inactive"}
{"gene knocked down":"CG10137","DRSC id":"DRSC02014","infection score, replicate 1":20.9,"cell count, replicate 1":6293,"outcome":"inactive"}
{"gene knocked down":"CG10137","DRSC id":"DRSC02015","infection score, replicate 1":16,"cell count, replicate 1":5585,"outcome":"inactive"}
{"gene knocked down":"CG10137","DRSC id":"DRSC27098","infection score, replicate 1":5.91,"cell count, replicate 1":6868,"outcome":"inactive"}

A few values from above:
Entry of CG10137 [DRSC02015] under “cell count, replicate 1”: 5585
CG3065 [DRSC24998], infection score, replicate 1 → 9.92
